According to the CheMixHub ionic liquid set:
± gives the uncertainty stated by the source.

Assay: xn = mol fraction of the nth substance listed
Details: 101 kPa

C[n+]1ccn(CCCC#N)c1.O=S(=O)(F)[N-]S(=O)(=O)F + CC#N
Details | electrical conductivity [S/m] | viscosity [mPa·s]
288.15 K, x1 = 0.0977 | 4.28 ± 0.043 | 1.55 ± 0.03
288.15 K, x1 = 0.1994 | 3.09 ± 0.031 | 4.94 ± 0.11
288.15 K, x1 = 0.2997 | 1.79 ± 0.018 | 10.52 ± 0.23
288.15 K, x1 = 0.4003 | 1.14 ± 0.011 | 22.06 ± 0.48
288.15 K, x1 = 0.5007 | 0.722 ± 0.01 | 38.87 ± 0.85
288.15 K, x1 = 0.5945 | 0.445 ± 0.01 | 67.4 ± 1.5
288.15 K, x1 = 0.6987 | 0.345 ± 0.01 | 106.1 ± 3.3
288.15 K, x1 = 0.792 | 0.258 ± 0.01 | 148.5 ± 5.8
288.15 K, x1 = 0.8983 | 0.158 ± 0.01 | 208 ± 10
288.15 K, x1 = 1 | 0.106 ± 0.01 | 401 ± 28
293.15 K, x1 = 0.0977 | 4.55 ± 0.046 | 1.45 ± 0.03
293.15 K, x1 = 0.1994 | 3.36 ± 0.034 | 4.26 ± 0.09
293.15 K, x1 = 0.2997 | 2.05 ± 0.021 | 9.18 ± 0.2
293.15 K, x1 = 0.4003 | 1.31 ± 0.013 | 18.5 ± 0.4
293.15 K, x1 = 0.5007 | 0.865 ± 0.01 | 31.95 ± 0.7
293.15 K, x1 = 0.5945 | 0.551 ± 0.01 | 53.2 ± 1.1
293.15 K, x1 = 0.6987 | 0.426 ± 0.01 | 81.3 ± 2.1
293.15 K, x1 = 0.792 | 0.318 ± 0.01 | 112 ± 3.6
293.15 K, x1 = 0.8983 | 0.209 ± 0.01 | 159.3 ± 6.6
293.15 K, x1 = 1 | 0.134 ± 0.01 | 290 ± 17
298.15 K, x1 = 0.0977 | 4.81 ± 0.048 | 1.36 ± 0.03
298.15 K, x1 = 0.1994 | 3.65 ± 0.037 | 3.73 ± 0.08
298.15 K, x1 = 0.2997 | 2.31 ± 0.023 | 8.04 ± 0.18
298.15 K, x1 = 0.4003 | 1.51 ± 0.015 | 15.67 ± 0.34
298.15 K, x1 = 0.5007 | 1.03 ± 0.01 | 26.59 ± 0.58
298.15 K, x1 = 0.5945 | 0.675 ± 0.01 | 42.79 ± 0.93
298.15 K, x1 = 0.6987 | 0.524 ± 0.01 | 64.2 ± 1.4
298.15 K, x1 = 0.792 | 0.392 ± 0.01 | 86.6 ± 2.3
298.15 K, x1 = 0.8983 | 0.272 ± 0.01 | 124.4 ± 4.3
298.15 K, x1 = 1 | 0.182 ± 0.01 | 215 ± 11
303.15 K, x1 = 0.0977 | 5.08 ± 0.051 | 1.28 ± 0.03
303.15 K, x1 = 0.1994 | 3.93 ± 0.039 | 3.27 ± 0.07
303.15 K, x1 = 0.2997 | 2.57 ± 0.026 | 7.09 ± 0.16
303.15 K, x1 = 0.4003 | 1.73 ± 0.017 | 13.4 ± 0.29
303.15 K, x1 = 0.5007 | 1.2 ± 0.012 | 22.32 ± 0.49
303.15 K, x1 = 0.5945 | 0.814 ± 0.01 | 35.12 ± 0.77
303.15 K, x1 = 0.6987 | 0.642 ± 0.01 | 51.5 ± 1.1
303.15 K, x1 = 0.792 | 0.478 ± 0.01 | 68.5 ± 1.6
303.15 K, x1 = 0.8983 | 0.347 ± 0.01 | 98.7 ± 2.9
303.15 K, x1 = 1 | 0.234 ± 0.01 | 160.2 ± 6.6
308.15 K, x1 = 0.0977 | 5.35 ± 0.054 | 1.21 ± 0.03
308.15 K, x1 = 0.1994 | 4.22 ± 0.042 | 2.87 ± 0.06
308.15 K, x1 = 0.2997 | 2.84 ± 0.029 | 6.29 ± 0.14
308.15 K, x1 = 0.4003 | 1.95 ± 0.02 | 11.52 ± 0.25
308.15 K, x1 = 0.5007 | 1.38 ± 0.014 | 19.09 ± 0.42
308.15 K, x1 = 0.5945 | 0.964 ± 0.01 | 29.06 ± 0.63
308.15 K, x1 = 0.6987 | 0.765 ± 0.01 | 41.42 ± 0.9
308.15 K, x1 = 0.792 | 0.582 ± 0.01 | 55.3 ± 1.1
308.15 K, x1 = 0.8983 | 0.433 ± 0.01 | 78.4 ± 1.9
308.15 K, x1 = 1 | 0.299 ± 0.01 | 124.6 ± 4.3
313.15 K, x1 = 0.0977 | 5.61 ± 0.056 | 1.13 ± 0.03
313.15 K, x1 = 0.1994 | 4.5 ± 0.045 | 2.55 ± 0.06
313.15 K, x1 = 0.2997 | 3.11 ± 0.031 | 5.56 ± 0.12
313.15 K, x1 = 0.4003 | 2.2 ± 0.022 | 9.95 ± 0.22
313.15 K, x1 = 0.5007 | 1.59 ± 0.016 | 16.56 ± 0.36
313.15 K, x1 = 0.5945 | 1.13 ± 0.011 | 24.3 ± 0.53
313.15 K, x1 = 0.6987 | 0.907 ± 0.01 | 34.32 ± 0.75
313.15 K, x1 = 0.792 | 0.704 ± 0.01 | 44.33 ± 0.97
313.15 K, x1 = 0.8983 | 0.53 ± 0.01 | 63.1 ± 1.4
313.15 K, x1 = 1 | 0.377 ± 0.01 | 97.6 ± 2.8
318.15 K, x1 = 0.0977 | 5.89 ± 0.059 | 1.08 ± 0.02
318.15 K, x1 = 0.1994 | 4.78 ± 0.048 | 2.3 ± 0.05
318.15 K, x1 = 0.2997 | 3.39 ± 0.034 | 4.97 ± 0.11
318.15 K, x1 = 0.4003 | 2.46 ± 0.025 | 8.72 ± 0.19
318.15 K, x1 = 0.5007 | 1.8 ± 0.018 | 14.26 ± 0.31
318.15 K, x1 = 0.5945 | 1.31 ± 0.013 | 20.83 ± 0.45
318.15 K, x1 = 0.6987 | 1.06 ± 0.011 | 29.18 ± 0.64
318.15 K, x1 = 0.792 | 0.848 ± 0.01 | 37.26 ± 0.81
318.15 K, x1 = 0.8983 | 0.641 ± 0.01 | 50.8 ± 1
318.15 K, x1 = 1 | 0.47 ± 0.01 | 77.7 ± 1.9
323.15 K, x1 = 0.0977 | 6.16 ± 0.062 | 1.02 ± 0.02
323.15 K, x1 = 0.1994 | 5.08 ± 0.051 | 2.1 ± 0.05
323.15 K, x1 = 0.2997 | 3.67 ± 0.037 | 4.43 ± 0.1
323.15 K, x1 = 0.4003 | 2.74 ± 0.027 | 7.68 ± 0.17
323.15 K, x1 = 0.5007 | 2.03 ± 0.02 | 12.42 ± 0.27
323.15 K, x1 = 0.5945 | 1.51 ± 0.015 | 18.27 ± 0.4
323.15 K, x1 = 0.6987 | 1.24 ± 0.012 | 24.86 ± 0.54
323.15 K, x1 = 0.792 | 1.02 ± 0.01 | 31.38 ± 0.68
323.15 K, x1 = 0.8983 | 0.764 ± 0.01 | 42.92 ± 0.94
323.15 K, x1 = 1 | 0.584 ± 0.01 | 63.3 ± 1.4
